{"source": "PubChem BioAssay AID624099 (ICCB-Longwood, 2012)", "screen": "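Human genes that papillomavirus E2 requires to repress the HPV18 LCR promoter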 (primary screen)", "cell system": "human C33A cervical carcinoma cells (HPV-negative) stably expressing BPV1 E2 and an HPV18 LCR luciferase reporter", "reagents": "siRNA pool against human genes, 40 nM", "time to read-out": "72 h", "measurement": "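Per-well luciferase luminescence, z-scored on each plate against the plate mean and SD with control wells left out, then averaged across three replicate plates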", "reading the numbers": "mean z-score and z-score: higher = stronger reporter signal, weaker E2 silencing", "hit rule": "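Hit if mean z-score reaches 2 and two or more of three replicate z-scores also reach 2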", "note": "In all, the deposit lists about 21,000 reagents; shown is a part drawn at random. Of all reagents, 497 (2.4%) were called active. 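Higher z means weaker E2 silencing; only reporter increases were scored, and knock-downs that hurt cell survival may mask genuine repressor factors.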 Reagent sequences are not shown."}
{"gene": "NFKB2 (nuclear factor kappa B subunit 2)", "mean z-score": -0.29, "z-score, replicate A": -0.35, "z-score, replicate B": -0.45, "z-score, replicate C": -0.06, "Call": "inactive"}
{"gene": "PRPF39 (pre-mRNA processing factor 39)", "mean z-score": -0.54, "z-score, replicate A": -0.54, "z-score, replicate B": -0.29, "z-score, replicate C": -0.8, "Call": "inactive"}
{"gene": "AGXT (alanine--glyoxylate aminotransferase)", "mean z-score": -0.18, "z-score, replicate A": -0.26, "z-score, replicate B": -0.09, "z-score, replicate C": -0.2, "Call": "inactive"}
{"gene": "GH1 (growth hormone 1)", "mean z-score": 1.29, "z-score, replicate A": 1.23, "z-score, replicate B": 1.45, "z-score, replicate C": 1.19, "Call": "inactive"}
{"gene": "CIDEB (cell death inducing DFFA like effector b)", "mean z-score": -0.34, "z-score, replicate A": -0.45, "z-score, replicate B": -0.37, "z-score, replicate C": -0.18, "Call": "inactive"}
{"gene": "LOC401048 (retired record)", "mean z-score": 0.76, "z-score, replicate A": 1.6, "z-score, replicate B": 0.39, "z-score, replicate C": 0.3, "Call": "inactive"}
{"gene": "P2RX7 (purinergic receptor P2X 7)", "mean z-score": 1.87, "z-score, replicate A": 2, "z-score, replicate B": 1.83, "z-score, replicate C": 1.79, "Call": "inactive"}
{"gene": "PTPRVP (protein tyrosine phosphatase receptor type V, pseudogene)", "mean z-score": 1.83, "z-score, replicate A": 1.48, "z-score, replicate B": 2.3, "z-score, replicate C": 1.72, "Call": "inactive"}
{"gene": "LOC219797 (retired record)", "mean z-score": 1.9, "z-score, replicate A": 1.98, "z-score, replicate B": 1.45, "z-score, replicate C": 2.26, "Call": "inactive"}
{"gene": "BMP2K (BMP2 inducible kinase)", "mean z-score": -0.5, "z-score, replicate A": -0.35, "z-score, replicate B": -0.57, "z-score, replicate C": -0.57, "Call": "inactive"}
{"gene": "FGA (fibrinogen alpha chain)", "mean z-score": -1.34, "z-score, replicate A": -1.25, "z-score, replicate B": -1.33, "z-score, replicate C": -1.44, "Call": "inactive"}
{"gene": "KIT (KIT proto-oncogene, receptor tyrosine kinase)", "mean z-score": -0.46, "z-score, replicate A": -0.36, "z-score, replicate B": -0.52, "z-score, replicate C": -0.49, "Call": "inactive"}

Reformatted: results already given.
LOC219797 (retired record) | mean z-score = 1.9; z-score, replicate A = 1.98; z-score, replicate B = 1.45; z-score, replicate C = 2.26; Call = inactive
BMP2K (BMP2 inducible kinase) | mean z-score = -0.5; z-score, replicate A = -0.35; z-score, replicate B = -0.57; z-score, replicate C = -0.57; Call = inactive
